Measured values from several laboratories, pooled; numbers as filed in NIAID ChemDB.

All rows: tests in culture; agent: Mycobacterium chelonae; endpoint: MIC

Neighbouring rows are from separate reports.

| structure | conditions | strain or isolate | read by | value |
|---|---|---|---|---|
| FC(F)(F)c1cc(-c2ccccc2)nc(N2N=C(/C=C/c3ccc(Cl)cc3)CC2c2ccc(Cl)cc2)n1 | - | - | resazurin | >20.6 µM |
| C[C@@H]1CN(c2c(F)c(N)c3c(=O)c(C(=O)O)cn(C4CC4)c3c2F)C[C@H](C)N1 | - | NCTC 946 | broth dilution / visual reading | 1 µg/mL |
| CCCCCCCCCCCCCCCCCCCCCCCCCCCCCCOC(=O)NC(C)(CCC(=O)O)CCC(=O)O | - | EO-P-1 | - | 70 µg/mL |
| CC1(C)CC[C@]2(C(=O)O)CC[C@]3(C)C(CC[C@@H]4[C@@]5(C)C[C@H](O)CC(C)(C)[C@@H]5CC[C@]43C)[C@@H]2C1 | - | - | resazurin | 100 µg/mL |
| CCCCCCCC1OC(c2ccncc2)=NN1C(C)=O | - | - | agar | >100 µg/mL |
| CCCCCCCCCCCCCCCCCCNC(=O)NC(CCC(=O)O)(CCC(=O)O)CCC(=O)O | - | EO-P-1 | - | 3 µg/mL |
| CSc1nc(N)c2c(n1)NC(c1ccccc1)CC(c1ccc3c(c1)OCO3)=N2 | clinical isolate | MNT1407 | MTT / broth dilution / absorbance | >32 µg/mL |
| COC(=O)/C=C/C(=O)c1ccc(C(C)(C)C)cc1 | - | - | - | 8 µg/mL |
| Cc1c(C)c(C)[c-](C)c1C.N[C@H](C(=O)[O-])c1ccccc1.[Cl][Rh+2] | - | EO-P-1 | - | 15 µg/mL |
| CCCCCCCCCCCC1OC(c2ccncc2)=NN1C(C)=O | - | - | agar | 6 µg/mL |
| NNC(=O)c1ccncc1 | clinical isolate | MNT1407 | MTT / broth dilution / absorbance | >0.5 µg/mL |
| CCCCCCCCCCCCCCC(=O)NC(CCC(=O)O)(CCC(=O)O)CCC(=O)O | - | EO-P-1 | - | 54 µg/mL |
| N=C(N)N1N=C(/C=C/c2ccc(Cl)cc2)CC1c1ccc(Cl)cc1 | - | - | resazurin | 1.74 µM |
| CCCCCCCCCCCCCC(=O)NC(CCC(=O)O)(CCC(=O)O)CCC(=O)O | - | EO-P-1 | - | 36 µg/mL |
| COc1ccc(C2=Nc3c(N)nc(N)nc3NC(c3ccc4c(c3)OCO4)C2)cc1 | clinical isolate | MNT1407 | MTT / broth dilution / absorbance | >32 µg/mL |

Repeating the first 2 entries:

structure,conditions,strain or isolate,read by,value
FC(F)(F)c1cc(-c2ccccc2)nc(N2N=C(/C=C/c3ccc(Cl)cc3)CC2c2ccc(Cl)cc2)n1,-,-,resazurin,>20.6 µM
C[C@@H]1CN(c2c(F)c(N)c3c(=O)c(C(=O)O)cn(C4CC4)c3c2F)C[C@H](C)N1,-,NCTC 946,broth dilution / visual reading,1 µg/mL

An empty or dashed field is not shown.